Data as given in US20250320258.
The exact form of at least one protein or probe is not confirmed. Results from cells or extracts need not show a direct contact.

Molecular target: NSP12 (RNA-dependent RNA polymerase) (SARS-CoV-2) (UniProt P0DTD1)
Assay: binding assay
Conditions: eCLIP motif, weakly enriched; protein in cells; protein details: 2xStrep or 3xFLAG, expressed in BEAS-2B

## GUCCCG [GUCCCG motif]
  binding result: binds
